Sequence variants of PSTVd loop 15 after infection

The pool varies loop 15 of the PSTVd intermediate strain in the pattern GGAAACCGNNNNNNC; wild type is GGAAACCGCUACUAC (upper and lower strand joined, each 5' to 3', the first 7 letters being the upper strand, closing pairs included).

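A pool of all variants was put on leaves of three Nicotiana benthamiana plants. Samples came from the inoculated region at 5 days, the leaf margin at 10 and upper systemic leaves at 12.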

Values are reads per thousand in the sample; higher means more abundant, 0 means not found. Each value is the mean of three plants. "Pool" is the share in the plasmid pool used as inoculum, on the same scale. The inoculated region was read from the minus strand, the other sites from the plus strand.

sequence	pool	inoculated region	leaf margin	systemic leaves
GGAAACCGCAUCGUC	0.176	0.0738	0.00668	0
GGAAACCGUGAUGGC	0.176	0.104	0.00742	0.00537
GGAAACCGGCAGUCC	0.272	0.279	0.177	0.0736
GGAAACCGGGUGCUC	0.224	0.105	0	0
GGAAACCGGAAUUAC	0.256	0.366	0.0954	0.0585
GGAAACCGUUGCGAC	0.320	0.102	0	0
GGAAACCGCAGGUCC	0.160	0.188	0	0.00537
GGAAACCGCAACUGC	0.256	0.0994	0.660	0
GGAAACCGCACGAUC	0.272	0.328	0.0859	0.0708
GGAAACCGGCAGGUC	0.144	0.0936	0.00539	0
GGAAACCGGAAGGCC	0.192	0.0678	0.00539	0
GGAAACCGCUUUUCC	0.224	0.0900	0.0121	0
GGAAACCGGUGACCC	0.128	0.104	0.00742	0
GGAAACCGAUUGCGC	0.240	0.0926	0.00668	0
GGAAACCGGUCUAUC	0.192	0.126	0.0208	0
GGAAACCGAUCCGCC	0.320	0.0902	0.00668	0
GGAAACCGGAUAAGC	0.272	0.143	0.00742	0
GGAAACCGAGGUUUC	0.256	0.0675	0.00668	0
GGAAACCGAAAGUGC	0.256	0.313	0.0659	0.0743
GGAAACCGACAGAUC	0.240	0.333	0.0760	0.0268
GGAAACCGGCAGCCC	0.336	0.141	0.0195	0
GGAAACCGUCGCUUC	0.192	0.0784	0.0208	0
GGAAACCGUUCUAAC	0.288	0.372	0.0605	0.0215
GGAAACCGGGACUCC	0.304	0.0848	0.00668	0
GGAAACCGGAAGGAC	0.240	0.246	0.118	0
GGAAACCGGACAAAC	0.320	0.0441	0.00668	0
GGAAACCGGUAGGCC	0.304	0.105	0	0
GGAAACCGAGGAACC	0.240	0.0972	0	0
GGAAACCGCUGGUUC	0.288	0.299	0.115	0.0407
GGAAACCGAAGCGGC	0.192	0.343	0.0175	0.0107
GGAAACCGAGAGUGC	0.176	0.316	0.0926	0.0815
GGAAACCGUACUUGC	0.288	0.0750	0.00539	0
GGAAACCGACAGUCC	0.144	0.294	0.118	0.118
GGAAACCGCUCCGUC	0.320	0.114	0.0269	0.00537
GGAAACCGACACAAC	0.160	0.355	0.117	0.0107
GGAAACCGGAUGACC	0.256	0.0783	0.0134	0
GGAAACCGCUAUUGC	0.160	0.316	0.114	0.0509
GGAAACCGCUCAGAC	0.256	0.0802	0.0267	0.00537
GGAAACCGUAGCCAC	0.240	0.0751	0	0.00760
GGAAACCGGGGGGUC	0.320	0.110	0.0316	0
GGAAACCGAGAGGAC	0.176	0.254	0.105	0.0430
GGAAACCGCCAGAUC	0.272	0.355	0.0557	0.0685
GGAAACCGUGGUGGC	0.320	0.0653	0.0241	0
GGAAACCGCGGCGCC	0.192	0.263	0	0

The authors trace changes outside the varied positions to PCR and sequencing errors or to mutation in the plant; presence does not show that a variant is infectious alone. For reference, wild type rose from 33.9 per thousand in the pool to 202, 200, 159 (inoculated region), 724, 746, 710 (leaf margin) and 856, 883, 880 (systemic leaves). Samples held 43,870 to 66,106 reads, so the smallest values rest on one or two reads.

Reference: Wu et al. 2024, doi:10.1371/journal.ppat.1012142.